How the values were obtained:
[1] = test system: SARS-CoV-2 VR PV10734 (strain Milano); type: cell-based; conditions: for SARS‐CoV‐2/Vero TMPRSS SI: preliminary screening
[2] = test system: ZIKV, strain Brazil/2016/INMI1; assay: ZIKV viral yield reduction assay on Huh-7 cells; type: cell-based, Zika virus; conditions: preliminary screening
Description: We developed a protocol to screen the potential antiviral activity of compounds 1–20 against ZIKV (strain Brazil) on Huh-7 cells, against an H1N1 IAV strain (PR/8/1934) on MDCK cells, and against SARS-CoV-2 (strain Milano) on Vero-TMPRSS. Each compound was tested in duplicate at concentrations of 50 μM, 5 μM, and 0.5 μM. Treatment was applied immediately after infection, and at 24–48 h post-infection, supernatants were collected to assess viral yield, determined as PFU/mL for ZIKV and SARS-CoV-2 or as TCID50/mL for IAV. The test allowed us to evaluate both the antiviral action and the cytotoxicity of each compound, comparing them with reference compounds, such as sofosbuvir for ZIKV and EIDD-1931 for IAV and SARS-CoV-2 (Supplementary Materials, Figures S87–S89).
Viral yield reduction assays for ZIKV and SARS-CoV-2 were performed as previously described by Plicanti. Briefly, 1 × 10^4 Huh-7 cells/well and 1.2 × 10^4 VERO TMPRSS cells/well were infected with ZIKV (MOI 1) or SARS-CoV-2 (MOI 0.05) in a primary 96-well plate for 2 h at 37 °C, 5% CO2. […] Supernatants were collected after 48 h (Huh-7) or 24 h (VERO TMPRSS), diluted 3-fold, and added onto VERO E6 or VERO TMPRSS monolayers, respectively. After 2 h at 37 °C, the inoculum was replaced with 0.75% carboxymethyl cellulose (Merck®, Darmstadt, Germany) in DMEM 2% FBS. After 48–72 h, cells were then fixed with 4% buffered formalin solution (Merck®, Darmstadt, Germany) and stained with 1% crystal violet (Merck®, Darmstadt, Germany). Titres and percentage of inhibition were calculated as follows:
PFU/mL = number of plaques*3^n/vol infection, where n is the dilution where plaques were counted:% inhibition = 100 × (1 − Titre-compound/Titre-untreated control) where Titre-compound and Titre-untreated control are the titres (PFU/mL) obtained on cells treated with compound or DMSO, respectively.
SI was obtained by dividing CC50 by EC50 for each drug/virus/cell line. Compounds with SI values ≥ 10 were active in vitro.

Compound	SARS‐CoV‐2/Vero TMPRSS SI [1]	ZIKV/Huh‐7 SI [2]	selectivity index (SI) ([1]; SARS-CoV-2, VERO TMPRSS cells, CC50/EC50)
CCN1CCC[C@H]1CNC(=O)c1[nH]c2c(c1Cl)CCCc1ccccc1-2 [Compound 1, (S)-3-Chloro-N-(1-ethyl-2-pyrrolidinylmethyl)-5,6-dihydro-4H-benzo[6,7]cyclohepta[1,2-b]pyrrol-2-carboxamide]	1.54	1.87	
O=C(NCCN1CCN(c2ccccc2)CC1)c1[nH]c2c(c1Cl)CCCc1ccccc1-2 [Compound 2, 3-Chloro-N-(2-(4-phenylpiperazin-1-yl)ethyl)-1,4,5,6-tetrahydrobenzo[6,7]cyclohepta[1,2-b]pyrrole-2-carboxamide]		< 1.14	
O=C(NCCN1CCN(c2ccc(Cl)cc2)CC1)c1[nH]c2c(c1Cl)CCCc1ccccc1-2 [Compound 3]		19.31	
O=C(NCCN1CCN(c2ccccc2Cl)CC1)c1[nH]c2c(c1Cl)CCCc1ccccc1-2 [Compound 4]	1.36	13.63	
COc1ccccc1N1CCN(CCNC(=O)c2[nH]c3c(c2Cl)CCCc2ccccc2-3)CC1 [Compound 5]	0.84	6.37	
COc1cccc(N2CCN(CCNC(=O)c3[nH]c4c(c3Cl)CCCc3ccccc3-4)CC2)c1 [Compound 6]		16.49	
CCOc1ccccc1N1CCN(CCNC(=O)c2[nH]c3c(c2Cl)CCCc2ccccc2-3)CC1 [Compound 7]	1.03	13.29	
N#Cc1ccccc1N1CCN(CCNC(=O)c2[nH]c3c(c2Cl)CCCc2ccccc2-3)CC1 [Compound 8, 3-Chloro-N-(2-(4-(2-cyanophenyl)piperazin-1-yl)ethyl)-1,4,5,6-tetrahydrobenzo[6,7]cyclohepta[1,2-b]pyrrole-2-carboxamide]	1.16	17.62	
O=C(NCCN1CCN(c2ccc(Cl)c(Cl)c2)CC1)c1[nH]c2c(c1Cl)CCCc1ccccc1-2 [Compound 9]		20.19	
O=C(NCCCN1CCN(c2ccccc2)CC1)c1cc2c([nH]1)-c1ccccc1CCC2 [Compound 10, N-(3-(4-Phenylpiperazin-1-yl)propyl)-1,4,5,6-tetrahydrobenzo[6,7]cyclohepta[1,2-b]pyrrole-2-carboxamide]		3.46	
O=C(NCCN1CCN(c2ccccc2)CC1)c1c(Cl)[nH]c2c1CCCc1ccccc1-2 [Compound 12, 2-Chloro-N-(2-(4-phenylpiperazin-1-yl)ethyl)-1,4,5,6-tetrahydrobenzo[6,7]cyclohepta[1,2-b]pyrrole-3-carboxamide]	32.22	22.20	
O=C(NCCN1CCN(c2ccc(Cl)cc2)CC1)c1c(Cl)[nH]c2c1CCCc1ccccc1-2 [Compound 13]	< 154.36	44.58	
O=C(NCCN1CCN(c2ccccc2Cl)CC1)c1c(Cl)[nH]c2c1CCCc1ccccc1-2 [Compound 14]		6.37	
COc1ccccc1N1CCN(CCNC(=O)c2c(Cl)[nH]c3c2CCCc2ccccc2-3)CC1 [Compound 15]	0.94	1.99	
CCOc1ccccc1N1CCN(CCNC(=O)c2c(Cl)[nH]c3c2CCCc2ccccc2-3)CC1 [Compound 17]		3.67	
N#Cc1ccccc1N1CCN(CCNC(=O)c2c(Cl)[nH]c3c2CCCc2ccccc2-3)CC1 [Compound 18, 2-Chloro-N-(2-(4-(2-cyanophenyl)piperazin-1-yl)ethyl)-1,4,5,6-tetrahydrobenzo[6,7]cyclohepta[1,2-b]pyrrole-3-carboxamide]		3.77	
O=C(NCCN1CCN(c2ccc(Cl)c(Cl)c2)CC1)c1c(Cl)[nH]c2c1CCCc1ccccc1-2 [Compound 19]		2.95	
O=C(NCCCN1CCN(Cc2ccccc2)CC1)c1c(Cl)[nH]c2c1CCCc1ccccc1-2 [Compound 20, N-(3-(4-Benzylpiperazin-1-yl)propyl)-2-chloro-1,4,5,6-tetrahydrobenzo[6,7]cyclohepta[1,2-b]pyrrole-3-carboxamide]	0.87	1.32	
O=c1nc(NO)ccn1[C@@H]1O[C@H](CO)[C@@H](O)[C@H]1O [EIDD-1931, reference compound]	121.64		443.60
CC(C)OC(=O)[C@H](C)N[P@](=O)(OC[C@H]1O[C@@H](n2ccc(=O)[nH]c2=O)[C@](C)(F)[C@@H]1O)Oc1ccccc1 [sofosbuvir, reference compound]		144.98	
N-(3-(4-Benzylpiperazin-1-yl)propyl)-2-chloro-1,4,5,6-tetrahydrobenzo[6,7]cyclohepta[1,2-b]pyrrole-2-carboxamide [Compound 11]		1.40	

Source: PMC12566046, “Arylpiperazinyl-Benzocycloheptapyrrole-Carboxamides Endowed with Dual Anticancer and Antiviral Activities” (Molecules, 2025)
